Measured values from several laboratories, pooled; numbers as filed in NIAID ChemDB.

Shared fields: tests in culture; species: Mycobacterium tuberculosis

Neighbouring rows are from separate reports. Percent inhibition refers to the dose given; in toxicity tests it is the harm to the cells. Blank or dashed fields: not listed here. A number after MIC or MFC names an inhibition level or a share of isolates. MIC bound comes from a single tested concentration. ECn is the concentration giving n% inhibition of infection, replication or growth.

structure	mutations	strain or isolate	conditions	method	dose	endpoint	result
CC(=O)Nc1ccc2sc3ccccc3c2c1		H37Rv				MIC	50 µg/mL
CN(C)c1ccc(/C=C/C(=O)c2ccccn2)cc1		H37Rv			12.5 µg/mL	inhibition	16%
O=C(O)c1ccc([N+](=O)[O-])cc1Br		H37Rv				MIC	>100 µg/mL
COc1ccc2oc(=O)n(-c3ccc(Br)cc3)c(=S)c2c1		My 331/88	21 d			MIC	32 µM
CCCCCCCCCOc1ccc(NC(=O)OCCN2CCCCC2)cc1		My 331/88				MIC	16 µM
CCOC(=O)c1ccc(NC(=O)c2cnccn2)cc1		H37Rv		BACTEC		MIC bound	>12.5 µg/mL
O=C(/C=C/c1ccc([O-])c(C[O-])c1)c1cccc(O)c1		H37Rv			12.5 µg/mL	inhibition	53%
CO/N=C/c1cc(NC(=S)c2ccoc2C)ccc1Cl		H37Rv		BACTEC		MIC bound	>12.5 µg/mL
CC[C@@H](CO)NCCN[C@@H](CC)CO		MDR7		broth dilution / resazurin		MIC	1 µg/mL
Cc1ccc2oc(=S)n(-c3ccc(Br)cc3)c(=S)c2c1		My 331/88	21 d			MIC	0.5 µM
Nc1nc(N)c(N=Nc2ccc(Cl)cc2)c(Cl)n1		H37Rv		BACTEC	12.5 µg/mL	inhibition	39%
COc1ccc(C2Oc3cc(F)ccc3C(=O)C2O)cc1					12.5 µg/mL	inhibition	50%
CC(C)(CO)NCC(C)(C)[N+](=O)[O-]		H37Rv		BACTEC		MIC bound	>12.8 µg/mL
NC(=O)NC(=O)c1nc2ccccc2[nH]c1=O		H37Rv				MIC	100 µg/mL
CC[C@@H](CO)NCCN[C@@H](CC)CO		Isolate 17				MIC	1 µg/mL
NC[C@H]1O[C@H](O[C@H]2[C@H](O)[C@@H](O[C@H]3O[C@H](CO)[C@@H](O)[C@H](N)[C@H]3O)[C@H](N)C[C@@H]2N)[C@H](O)[C@@H](O)[C@@H]1O		TN3360 (W)				MIC	>256 µg/mL
COc1ccc(CCc2cc(OC)c3ccccc3n2)cc1OC		MT5				MIC	25 µg/mL
Cl.NCC(=O)Nc1ccccc1		H37Rv				MIC	>100 µg/mL
CC(C)c1ccc2c(c1)CC[C@H]1[C@](C)(CNCCN[C@@H](C)C3CCCCC3)CCC[C@]21C						MIC	25 µM
CC(=O)Nc1cccc(N)c1.Cl		H37Rv				MIC	>100 µg/mL
CCCOc1ccccc1NC(=O)OCCN1CCCCCC1		My 331/88				MIC	125 µM
O=c1[nH]c2ccccc2[nH]1		H37Rv				MIC	>100 µg/mL
CC[C@H]1OC(=O)[C@H](C)[C@@H](O[C@H]2C[C@@](C)(OC)[C@@H](O)[C@H](C)O2)[C@H](C)[C@@H](O[C@@H]2O[C@H](C)C[C@H](N(C)C)[C@H]2O)[C@](C)(OC)C[C@@H](C)C(=O)[C@H](C)[C@@H](O)[C@]1(C)O		ATCC 35822				MIC	>8 µg/mL
Cc1ccc(NC(=O)c2ccccc2)cc1		H37Rv				MIC	>100 µg/mL
CO[C@H]1/C=C/O[C@@]2(C)Oc3c(C)c(O)c4c(O)c(c(/C=N/N5CCN(C/C=C/c6ccccc6)CC5)c(O)c4c3C2=O)NC(=O)/C(C)=C\C=C\[C@H](C)[C@H](O)[C@@H](C)[C@@H](O)[C@@H](C)[C@H](OC(C)=O)[C@@H]1C		H37RV (RIF-S)				MIC	0.03 µg/mL
Cc1ccc(C(C)C)c(O)c1		H37Rv				MIC	100 µg/mL
CC1(C)CCC[C@]2(C)[C@H]3C=C4C=C(O)C(=O)C=C4O[C@@]3(C)CC[C@@H]12		KM-R				MIC	12.5 µg/mL
CCCCOc1ccccc1NC(=O)OCCN(C)C		My 331/88				MIC	500 µM
CCCCC(CC)CN1CN(CC(CC)CCCC)CC(C)(NCCNC[C@@H](C)O)C1						MIC	25 µM
C=C(NC(=O)c1csc(-c2nc3c(cc2O)-c2nc(cs2)C(=O)N[C@@H]([C@@H](C)O)C(=O)N/C(=C(\C)OC)c2nc(cs2)C(=O)N[C@@H]2c4nc(cs4)C(=O)N[C@@H](COC(=O)c4c5c6c(cccc6n4O)COC(=O)[C@@H](O[C@H]4C[C@](C)(O)[C@H](N(C)C)[C@H](C)O4)[C@H]2OC5)c2nc-3cs2)n1)C(N)=O		Clinical isolate 12850		broth dilution		MIC	≤2.5 µM
CO[C@H]1/C=C/O[C@@]2(C)Oc3c(C)c(O)c4c(=O)c(c5oc6cc(N7CCN(CC(C)C)CC7)cc(=O)c6nc5c4c3=C2O)NC(=O)/C(C)=C\C=C\[C@H](C)[C@H](O)[C@@H](C)[C@@H](O)[C@@H](C)[C@H](OC(C)=O)[C@@H]1C		TN635				MIC	>32 µg/mL
S=C(S)NNc1ccccc1		CS-R				MIC	>12.5 µg/mL
O=CNc1ccccc1-c1ccccc1		H37Rv				MIC	25 µg/mL
CC1=C/C(=N\NC(=O)c2ccc[n+](C)c2)CC(C)(C)C1.Cc1ccc(S(=O)(=O)[O-])cc1		H37Rv		BACTEC		MIC	≥12.5 µg/mL
CCOc1ccc(NC(=O)OCCN(C)C)cc1		My 331/88				MIC	1000 µM
CC(=O)NNc1nc(C)c(C(=O)NNC(=O)C(=O)Nc2ccc(Cl)c([N+](=O)[O-])c2)s1		H37Rv		resazurin	6.25 µg/mL	inhibition	23%
NC1CCN(c2nc3c(cc2F)c(=O)c(C(=O)O)cn3-c2ccc(F)cc2F)C1		ATCC 35828				MBC	>8 µg/mL
OCCNCCNCCC(c1ccccc1)c1ccccc1						MIC	50 µM
C=CC(C)(C)C1=CC(=O)C(OC)=CC1=O		H37Rv		BACTEC		MIC	32 µg/mL
CC[C@H]1OC(=O)[C@H](C)[C@@H](O[C@H]2C[C@@](C)(OC)[C@@H](O)[C@H](C)O2)[C@H](C)[C@@H](O[C@@H]2O[C@H](C)C[C@H](N(C)C)[C@H]2O)[C@](C)(O)C[C@@H](C)CN(C)[C@H](C)[C@@H](O)[C@]1(C)O		ATCC 35827				MIC	>8 µg/mL
CCC(C)(C)NCCNCc1ccc(C(F)(F)F)cc1						MIC	25 µM
CCCCCCOc1ccccc1NC(=O)OCC[NH+]1CCCC1		My 331/88				MIC	62.5 µM
NC(N)=NNC(=O)CCn1[nH]c(=O)c(Cl)c(Cl)c1=O		H37Rv		BACTEC		MIC bound	>6.25 µg/mL
CO/C(C)=C1/NC(=O)[C@H]([C@@H](C)O)NC(=O)c2csc(n2)-c2cc(O)c(-c3nc(C(=O)NCCCN4CCOCC4)cs3)nc2-c2csc(n2)[C@@H]2COC(=O)c3c4c5c(cccc5n3O)COC(=O)[C@@H](O[C@H]3C[C@](C)(O)[C@H](N(C)C)[C@H](C)O3)[C@@H](OC4)[C@H](NC(=O)c3csc1n3)c1nc(cs1)C(=O)N2	Rifampicin- and isoniazid-resistant	Clinical isolate 15552		broth dilution		MIC	≤2.5 µM
CC[C@H]1OC(=O)[C@H](C)[C@@H](O[C@H]2C[C@@](C)(OC)[C@@H](O)[C@H](C)O2)[C@H](C)[C@@H](O[C@@H]2O[C@H](C)C[C@H](N(C)C)[C@H]2O)[C@](C)(O)C[C@@H](C)C(=O)[C@H](C)[C@@H](O)[C@]1(C)O		H37Rv				MIC	>8 µg/mL
O=C(O)c1ccc2c3c(oc2c1)CCCC3		H37Rv				MIC	>100 µg/mL
Cc1cc(OC(=O)c2c(-c3ccccc3)noc2C)n(-c2ccc(NC(=O)c3c(-c4ccccc4)noc3C)cc2)n1		H37Rv		resazurin	6.25 µg/mL	inhibition	27%
O=c1cc(-c2ccc(O)c(-c3c(O)cc4oc(-c5ccc(O)cc5)cc(=O)c4c3O)c2)oc2cc(O)cc(O)c12						EC50	>12.5 µg/mL
O=S(=O)(Nc1nccs1)c1ccccc1		H37Rv				MIC	100 µg/mL
CCN(CC)C(=S)[S][Bi]([S]C(=S)N(CC)CC)[S]C(=S)N(CC)CC		H37Rv		BACTEC		MIC bound	≤128 µg/mL
Cc1ccc2oc(=S)n(-c3ccc(F)cc3)c(=S)c2c1		My 331/88	21 d			MIC	8 µM
C=CCSc1nc2ccccc2c(=O)n1Cc1ccco1		H37Rv		BACTEC		MIC bound	>12.5 µg/mL
c1ccc2c(c1)oc1c([As](c3cccc4c3oc3ccccc34)c3cccc4c3oc3ccccc34)cccc12		H37Rv				MIC	>100 µg/mL
CO/C(C)=C1/NC(=O)[C@H]([C@@H](C)O)NC(=O)c2csc(n2)-c2cc(O)c(-c3nc(C(=O)NC(C)c4nc(-c5ccccn5)ns4)cs3)nc2-c2csc(n2)[C@@H]2COC(=O)c3c4c5c(cccc5n3O)COC(=O)[C@@H](O[C@H]3C[C@](C)(O)[C@H](N(C)C)[C@H](C)O3)[C@@H](OC4)[C@H](NC(=O)c3csc1n3)c1nc(cs1)C(=O)N2		Clinical Isolate 913		broth dilution		MIC	≤10 µM
O=[N+]([O-])c1oc2ccc3ccccc3c2c1CCO		H37Rv		resazurin	6.25 µg/mL	inhibition	0%
Nc1ccc(S(=O)(=O)NC(=O)c2ccc([N+](=O)[O-])cc2)cc1		H37Rv				MIC	100 µg/mL
CN1C(=O)CCCCCCCCCCSc2ccccc21		H37Rv		BACTEC	12.5 µg/mL	inhibition	3%
CC(=O)c1ccc(NC(=O)c2ccccc2)cc1		H37Rv				MIC	>100 µg/mL
CCNc1cc2sc3cc(=[NH+]CC)c(C)cc-3nc2cc1C		H37Rv		BACTEC	12.5 µg/mL	inhibition	58%
O=C1CC(c2ccc(Br)cc2)Oc2ccccc21					12.5 µg/mL	inhibition	26%
CN(C(=O)/C=C/c1ccccc1)C1C2CN3CCC(O2)C13		H37Rv		BACTEC	12.5 µg/mL	inhibition	21%
C[C@H]1COc2c(N3CCN(C)CC3)c(F)cc3c(=O)c(C(=O)O)cn1c23		Isolate 3				MIC	2 µg/mL
CC(=O)Nc1ccc(C(=O)O)c([N+](=O)[O-])c1		H37Rv		BACTEC		MIC bound	>12.5 µg/mL
COc1ccc(/C=C/C(=O)c2ccc(F)cc2O)cc1		H37Rv			12.5 µg/mL	inhibition	63%
C[C@H]1C[C@H](N)CN1c1cc2c(cc1F)c(=O)c(C(=O)O)cn2-c1ccc(F)cc1F		MDR				MBC90	>8 µg/mL
NC[C@H]1O[C@H](O[C@H]2[C@H](O)[C@@H](O[C@H]3O[C@H](CO)[C@@H](O)[C@H](N)[C@H]3O)[C@H](N)C[C@@H]2N)[C@H](O)[C@@H](O)[C@@H]1O		Isolate 8				MIC	2 µg/mL
O=C1CC(c2ccccc2)Oc2cc(Br)ccc21		H37Rv				EC50	>12.5 µg/mL
Nc1ccc(S(=O)(=O)Nc2ccccc2)cc1N		H37Rv				MIC	>100 µg/mL
NNC(=O)c1ccncc1		Clinical isolate 13923		broth dilution		MIC	≤0.2 µM
O=c1cc[nH]c2cc(Cl)ccc12		H37Rv				MIC	100 µg/mL
Cc1ccc(-n2c(=O)oc3ccc(Br)cc3c2=S)cc1		My 331/88	21 d			MIC	1 µM
CN1c2ccccc2CCC1CCc1ccc2c(c1)OCO2		MT9				MIC	>339 µg/mL
Cl.O=C(OCCCCCCN1CCOCC1)C(c1ccccc1)c1ccccc1		H37Rv				MIC	25 µg/mL
COc1cc2c(c(O)c1OC)-c1c(cc(OC)c(OC)c1OC)C[C@@H](C)[C@@H](C)C2		H37Rv		BACTEC		MIC	≥12.5 µg/mL
CCN(CCS(=O)(=O)O)c1ccc(N)cc1.Cl		H37Rv				MIC	>100 µg/mL
COc1ccc(O)c(C(=O)/C=C/c2ccco2)c1		H37Rv				EC50	>12.5 µg/mL
O=C(CNc1cc(=O)[nH]c(=S)[nH]1)NC1=NN(c2ccccc2)C(=O)C1		H37Rv				MIC	>100 µg/mL
NC(=O)c1cn(Cc2ccccc2)c(=O)n1Cc1ccccc1		H37Rv		BACTEC		MIC bound	>12.5 µg/mL
CO[C@H]1/C=C/O[C@@]2(C)Oc3c(C)c(O)c4c(O)c(c(/C=N/N5CCN(C)CC5)c(O)c4c3C2=O)NC(=O)/C(C)=C\C=C\[C@H](C)[C@H](O)[C@@H](C)[C@@H](O)[C@@H](C)[C@H](OC(C)=O)[C@@H]1C		Clinical isolate 12850		broth dilution		MIC	≤0.1 µM
Nc1ccc(S(=O)(=O)O)cc1C(F)(F)F		H37Rv				MIC	>100 µg/mL

Again, the opening 11 rows:

CC(=O)Nc1ccc2sc3ccccc3c2c1 ; strain or isolate: H37Rv ; endpoint: MIC ; result: 50 µg/mL
CN(C)c1ccc(/C=C/C(=O)c2ccccn2)cc1 ; strain or isolate: H37Rv ; dose: 12.5 µg/mL ; endpoint: inhibition ; result: 16%
O=C(O)c1ccc([N+](=O)[O-])cc1Br ; strain or isolate: H37Rv ; endpoint: MIC ; result: >100 µg/mL
COc1ccc2oc(=O)n(-c3ccc(Br)cc3)c(=S)c2c1 ; strain or isolate: My 331/88 ; conditions: 21 d ; endpoint: MIC ; result: 32 µM
CCCCCCCCCOc1ccc(NC(=O)OCCN2CCCCC2)cc1 ; strain or isolate: My 331/88 ; endpoint: MIC ; result: 16 µM
CCOC(=O)c1ccc(NC(=O)c2cnccn2)cc1 ; strain or isolate: H37Rv ; method: BACTEC ; endpoint: MIC bound ; result: >12.5 µg/mL
O=C(/C=C/c1ccc([O-])c(C[O-])c1)c1cccc(O)c1 ; strain or isolate: H37Rv ; dose: 12.5 µg/mL ; endpoint: inhibition ; result: 53%
CO/N=C/c1cc(NC(=S)c2ccoc2C)ccc1Cl ; strain or isolate: H37Rv ; method: BACTEC ; endpoint: MIC bound ; result: >12.5 µg/mL
CC[C@@H](CO)NCCN[C@@H](CC)CO ; strain or isolate: MDR7 ; method: broth dilution / resazurin ; endpoint: MIC ; result: 1 µg/mL
Cc1ccc2oc(=S)n(-c3ccc(Br)cc3)c(=S)c2c1 ; strain or isolate: My 331/88 ; conditions: 21 d ; endpoint: MIC ; result: 0.5 µM
Nc1nc(N)c(N=Nc2ccc(Cl)cc2)c(Cl)n1 ; strain or isolate: H37Rv ; method: BACTEC ; dose: 12.5 µg/mL ; endpoint: inhibition ; result: 39%